{"source": "PubChem BioAssay AID1259414 (Drosophila RNAi Screening Center, 2018)", "purpose": "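Host factors increasing or decreasing Wolbachia levels in cultured fly cells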 (primary screen)", "cell system": "Drosophila JW18 cells infected with Wolbachia", "reagent": "long dsRNA against Drosophila genes, 0.25 µg dsRNA per well of a 384-well plate", "duration": "5 days", "challenge": "cells persistently infected with Wolbachia before knock-down; no added drug", "read-out": "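Automated imaging of bacterial rRNA staining divided by host cell count, reported as plate-normalised robust z-score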", "reading the numbers": "Wolbachia per cell robust z: higher = more Wolbachia per host cell than the plate typical", "hit rule": "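Hit when robust z is 1.5 or more, or -1.5 or less, in at least two of three replicates; excludes dsRNAs with several or no targets, genes not expressed in JW18 and well A1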", "note": "In all, the deposit lists about 24,000 reagents; shown is an unselected part of those that have a named target and a result. Of all reagents, about 1,210 (5%) are marked active. 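Inactive calls also include excluded dsRNAs with several or no targets, genes unexpressed in JW18, and well A1, regardless of score.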 The numbers tell different reagents against one gene apart. A plus sign joins genes that one reagent is predicted to hit. No sequences are given here."}
{"gene": "Desi (Desiccate)", "dsRNA no.": 1, "Wolbachia per cell robust z, rep 1": -0.113, "Wolbachia per cell robust z, rep 2": 0.0239, "Wolbachia per cell robust z, rep 3": -0.0306, "call": "inactive"}
{"gene": "Glyp (Glycogen phosphorylase)", "dsRNA no.": 1, "Wolbachia per cell robust z, rep 1": 0.281, "Wolbachia per cell robust z, rep 2": -1.25, "Wolbachia per cell robust z, rep 3": -0.801, "call": "inactive"}
{"gene": "cv-d (crossveinless d)", "dsRNA no.": 1, "Wolbachia per cell robust z, rep 1": 0.235, "Wolbachia per cell robust z, rep 2": -0.298, "Wolbachia per cell robust z, rep 3": 0.125, "call": "inactive"}
{"gene": "cv-d (crossveinless d)", "dsRNA no.": 2, "Wolbachia per cell robust z, rep 1": 0.17, "Wolbachia per cell robust z, rep 2": 1.67, "Wolbachia per cell robust z, rep 3": 1.14, "call": "inactive"}
{"gene": "cv-d (crossveinless d)", "dsRNA no.": 3, "Wolbachia per cell robust z, rep 1": -4.95, "Wolbachia per cell robust z, rep 2": -1.54, "Wolbachia per cell robust z, rep 3": -1.49, "call": "active"}
{"gene": "prg (piragua)", "dsRNA no.": 1, "Wolbachia per cell robust z, rep 1": 0.431, "Wolbachia per cell robust z, rep 2": 0.876, "Wolbachia per cell robust z, rep 3": 0.0724, "call": "inactive"}
{"gene": "Orc4 (Origin recognition complex subunit 4)", "dsRNA no.": 1, "Wolbachia per cell robust z, rep 1": -5.3, "Wolbachia per cell robust z, rep 2": -0.722, "Wolbachia per cell robust z, rep 3": -0.408, "call": "inactive"}
{"gene": "Orc4 (Origin recognition complex subunit 4)", "dsRNA no.": 2, "Wolbachia per cell robust z, rep 1": -0.229, "Wolbachia per cell robust z, rep 2": 0.443, "Wolbachia per cell robust z, rep 3": -0.2, "call": "inactive"}
{"gene": "Orc4 (Origin recognition complex subunit 4)", "dsRNA no.": 3, "Wolbachia per cell robust z, rep 1": -1.41, "Wolbachia per cell robust z, rep 2": -0.11, "Wolbachia per cell robust z, rep 3": -2.6, "call": "inactive"}
{"gene": "CG10164", "dsRNA no.": 1, "Wolbachia per cell robust z, rep 1": -0.12, "Wolbachia per cell robust z, rep 2": -1.61, "Wolbachia per cell robust z, rep 3": 0.31, "call": "inactive"}
{"gene": "CG14778", "dsRNA no.": 1, "Wolbachia per cell robust z, rep 1": 0.587, "Wolbachia per cell robust z, rep 2": 0.349, "Wolbachia per cell robust z, rep 3": 0.132, "call": "inactive"}
{"gene": "Spt5", "dsRNA no.": 1, "Wolbachia per cell robust z, rep 1": 0.227, "Wolbachia per cell robust z, rep 2": 1.24, "Wolbachia per cell robust z, rep 3": 0.555, "call": "inactive"}
{"gene": "CG5122", "dsRNA no.": 1, "Wolbachia per cell robust z, rep 1": -4.94, "Wolbachia per cell robust z, rep 2": -0.339, "Wolbachia per cell robust z, rep 3": 0.793, "call": "inactive"}
{"gene": "CG5071", "dsRNA no.": 1, "Wolbachia per cell robust z, rep 1": -1.52, "Wolbachia per cell robust z, rep 2": 0.0972, "Wolbachia per cell robust z, rep 3": 0.468, "call": "inactive"}
{"gene": "CG5071", "dsRNA no.": 2, "Wolbachia per cell robust z, rep 1": 0.682, "Wolbachia per cell robust z, rep 2": 0.22, "Wolbachia per cell robust z, rep 3": 0.656, "call": "inactive"}
{"gene": "CG5071", "dsRNA no.": 3, "Wolbachia per cell robust z, rep 1": -0.65, "Wolbachia per cell robust z, rep 2": 1.11, "Wolbachia per cell robust z, rep 3": 1.19, "call": "inactive"}
{"gene": "Ir92a (Ionotropic receptor 92a)", "dsRNA no.": 1, "Wolbachia per cell robust z, rep 1": 0.124, "Wolbachia per cell robust z, rep 2": -6.12, "Wolbachia per cell robust z, rep 3": -1.27, "call": "inactive"}
{"gene": "CG12159", "dsRNA no.": 1, "Wolbachia per cell robust z, rep 1": -1.02, "Wolbachia per cell robust z, rep 2": -2.25, "Wolbachia per cell robust z, rep 3": -0.858, "call": "inactive"}
{"gene": "CG10274", "dsRNA no.": 1, "Wolbachia per cell robust z, rep 1": 0.659, "Wolbachia per cell robust z, rep 2": 0.566, "Wolbachia per cell robust z, rep 3": 0.959, "call": "inactive"}
{"gene": "CG10274", "dsRNA no.": 2, "Wolbachia per cell robust z, rep 1": -0.694, "Wolbachia per cell robust z, rep 2": 0.187, "Wolbachia per cell robust z, rep 3": 0.135, "call": "inactive"}
{"gene": "promL (prominin-like)", "dsRNA no.": 1, "Wolbachia per cell robust z, rep 1": 1.07, "Wolbachia per cell robust z, rep 2": 0.912, "Wolbachia per cell robust z, rep 3": 0.266, "call": "inactive"}
{"gene": "L (retired record) + PRAS40", "dsRNA no.": 1, "Wolbachia per cell robust z, rep 1": -2.28, "Wolbachia per cell robust z, rep 2": 0.997, "Wolbachia per cell robust z, rep 3": -2.46, "call": "inactive"}
{"gene": "L (retired record) + PRAS40", "dsRNA no.": 2, "Wolbachia per cell robust z, rep 1": 0.526, "Wolbachia per cell robust z, rep 2": -0.403, "Wolbachia per cell robust z, rep 3": -0.112, "call": "inactive"}
{"gene": "CG9672", "dsRNA no.": 1, "Wolbachia per cell robust z, rep 1": 0.0801, "Wolbachia per cell robust z, rep 2": 0.874, "Wolbachia per cell robust z, rep 3": -2.81, "call": "inactive"}
{"gene": "PpD5 (Protein phosphatase D5)", "dsRNA no.": 1, "Wolbachia per cell robust z, rep 1": -0.229, "Wolbachia per cell robust z, rep 2": 0.323, "Wolbachia per cell robust z, rep 3": -0.332, "call": "inactive"}
{"gene": "PpD5 (Protein phosphatase D5)", "dsRNA no.": 2, "Wolbachia per cell robust z, rep 1": -0.211, "Wolbachia per cell robust z, rep 2": 0.351, "Wolbachia per cell robust z, rep 3": -0.587, "call": "inactive"}
{"gene": "CG15905", "dsRNA no.": 1, "Wolbachia per cell robust z, rep 1": 0.0103, "Wolbachia per cell robust z, rep 2": -0.00302, "Wolbachia per cell robust z, rep 3": 0.264, "call": "inactive"}
{"gene": "RfC3 (Replication factor C subunit 3)", "dsRNA no.": 1, "Wolbachia per cell robust z, rep 1": -0.599, "Wolbachia per cell robust z, rep 2": 0.861, "Wolbachia per cell robust z, rep 3": -0.608, "call": "inactive"}
{"gene": "CG33919", "dsRNA no.": 1, "Wolbachia per cell robust z, rep 1": 1.44, "Wolbachia per cell robust z, rep 2": -0.389, "Wolbachia per cell robust z, rep 3": 0.634, "call": "inactive"}
{"gene": "gcl (germ cell-less)", "dsRNA no.": 1, "Wolbachia per cell robust z, rep 1": 0.655, "Wolbachia per cell robust z, rep 2": 0.502, "Wolbachia per cell robust z, rep 3": -0.81, "call": "inactive"}
{"gene": "gcl (germ cell-less)", "dsRNA no.": 2, "Wolbachia per cell robust z, rep 1": -1.3, "Wolbachia per cell robust z, rep 2": -0.0352, "Wolbachia per cell robust z, rep 3": -0.0367, "call": "inactive"}

Entries listed above marked active (1):
{"gene": "cv-d (crossveinless d)", "dsRNA no.": 3, "Wolbachia per cell robust z, rep 1": -4.95, "Wolbachia per cell robust z, rep 2": -1.54, "Wolbachia per cell robust z, rep 3": -1.49, "call": "active"}
